Measurements published in patent US20090104233.
Construct, isoform or probe ends are uncertain for at least one entry. For part of these data: Tags and fusion partners may be left off the protein sequences shown.

Experiments:
Assay in all cases: EMSA
[1] = target: T1, MBP-C/EBP-ToxTC (ToxT C-terminal domain) (Vibrio cholerae) (UniProt A5F384); conditions: purified recombinant protein; label: 32P 5' end (polynucleotide kinase)
T1 sequence: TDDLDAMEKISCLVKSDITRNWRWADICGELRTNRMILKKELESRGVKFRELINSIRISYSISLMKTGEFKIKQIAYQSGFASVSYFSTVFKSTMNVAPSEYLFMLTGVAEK

[2] = target: MBP-C/EBP-ToxTC S249A (Vibrio cholerae) (UniProt A5F384); conditions: 10 mM phosphate, 30 mM NaCl, pH 7.0, 37 C, purified recombinant protein, protein details: N-terminal MBP and C/EBP leucine zipper fusion, label: 32P 5' end (polynucleotide kinase)
[3] = target: MBP-C/EBP-ToxTC K203A (Vibrio cholerae) (UniProt A5F384); conditions: 10 mM phosphate, 30 mM NaCl, pH 7.0, 37 C, purified recombinant protein, protein details: N-terminal MBP and C/EBP leucine zipper fusion, label: 32P 5' end (polynucleotide kinase)
[4] = not significantly altered vs WT

Measured: binding result

TCAACGTAAGTGTGTTATTAAAAAAATAAAAAAACACAGCAAAAAATGAGATCTGTC (double strand) [tcpAp toxbox probe]
binds: [1] | [2]; [4] | [3]; [4]

TTTATGCTAACTCGTTAAATTTTTAAAAATAAATTTAACAAAATGTATAAAGCGATTT (double strand) [acfAp toxbox probe]
binds: [1] | [2]; binding pattern similar to WT | [3]; binding pattern similar to WT
